Values joined by “and” are separate entries in the source; they are usually repeats but may differ in a detail not shown here. Equal entries are not always repeated. This is a selection; strong and weak results do not stand in their true shares. Records with an inconclusive call do not appear. Active and inactive are the calls of the source. Calls follow the shape of the dose curve; as a rule, active = well fitted inhibition curve with a large enough effect; inconclusive = small, poorly fitted or top-dose-only effect; inactive = flat fitted curve, though single readings scatter.
Biological target: Beta-lactamase (Escherichia coli (strain K12)) (UniProt P00811)
Assay: qHTS Inhibitors of AmpC Beta-Lactamase (assay with detergent);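 also: 0% = no-compound wells and -100% = no-enzyme wells; nearly all actives have a fitted effect of over 25% in size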
Settings: AmpC hydrolysis of nitrocefin, absorbance 480 nm, 0.01% Triton; at 114 µM (top of the series)

Sequences of proteins named here, by UniProt entry; tags and fusion partners are left off. A change or cut given only in a name is not applied to a line headed by its entry.
UniProt P00811: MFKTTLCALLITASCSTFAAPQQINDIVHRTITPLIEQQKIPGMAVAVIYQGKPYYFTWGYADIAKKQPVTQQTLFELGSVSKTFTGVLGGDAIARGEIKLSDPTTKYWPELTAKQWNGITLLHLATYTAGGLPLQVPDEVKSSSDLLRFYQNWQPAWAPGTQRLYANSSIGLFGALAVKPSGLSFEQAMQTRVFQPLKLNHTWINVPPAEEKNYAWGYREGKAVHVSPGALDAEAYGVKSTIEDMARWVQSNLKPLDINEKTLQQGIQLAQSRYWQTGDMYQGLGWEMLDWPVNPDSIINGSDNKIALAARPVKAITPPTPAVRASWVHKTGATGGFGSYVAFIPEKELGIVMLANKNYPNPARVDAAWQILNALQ

Row | SMILES | activity change, negative = inhibition
1 | COc1ccc2nc(NP(=O)(c3ccccc3)c3ccccc3)sc2c1 | inactive: -16.6%
2 | COc1cc(I)ccc1[As](=O)(O)O | inactive: -2.64%
3 | O=C(OC1CN2CCC1CC2)C12CC3CC(CC(C3)C1)C2 (stereo unspecified) | inactive: -13.3%
4 | Cc1cc(=O)[nH]c(N[N+](=O)[O-])n1 | inactive: -11.4%
5 | Cc1c2c(nc3ccccc13)SC(C(Cl)Cl)C2 (stereo unspecified) | inactive: -4.4%
6 | COc1ccc(N/C(=N/P(=O)(N2CCOCC2)N2CCOCC2)N2CCOCC2)cc1 | inactive: 0.511%
7 | O=C(COc1ccccc1)OC1CN2CCC1CC2 (stereo unspecified) | inactive: -3.58%
8 | O=C(Nc1ccncc1[N+](=O)[O-])c1ccc([N+](=O)[O-])cc1[N+](=O)[O-] | inactive: -9.9%
9 | COP1(=S)c2c(C)nn(CCC#N)c2N=C(c2ccc(F)cc2)N1C (stereo unspecified) | inactive: -5.06%
10 | CCC(C)N(CC(C)C)C(=S)SC(NC(C)=O)C(Cl)(Cl)Cl (stereo unspecified) | inactive: -7.34%
11 | CCOC(=O)c1ccc(NC(=O)C(C)(CCl)SC)cc1 (stereo unspecified) | inactive: -1.98%
12 | O=C(OC1CN2CCC1CC2)c1cccc([N+](=O)[O-])c1 (stereo unspecified) | inactive: -0.664%
13 | CCCCOc1ccc(C(=O)NCC2(N3CCCCC3)CCCCC2)cc1OC | inactive: -2.33%
14 | Cc1cc(SC(NC(=O)c2ccccc2)C(Cl)(Cl)Cl)nc(C(C)C)n1 (stereo unspecified) | inactive: -4.53%
15 | CCOC(=O)Nc1ccc([As](=O)(O)O)c(O)c1 | inactive: -2.17%
16 | O=[N+]([O-])c1ccc(Nc2ccc(Oc3ccc([N+](=O)[O-])cc3[N+](=O)[O-])cc2)c([N+](=O)[O-])c1 | inactive: -6.61%
17 | O=P(Nc1ccccn1)(c1cccc2ccccc12)c1cccc2ccccc12 | inactive: 1.68%
18 | Cc1cc(SC(NC=O)C(Cl)(Cl)Cl)ncn1 (stereo unspecified) | inactive: 1.46%
19 | CCOC(=O)Nc1cccc([As](=O)(O)O)c1 | inactive: -5.84%
20 | O=C(Nc1cc([As](=O)(O)O)ccc1O)c1ccccc1 | inactive: -7.46%
21 | O=[N+]([O-])c1cccc(NC2=NCC(CBr)S2)c1 (stereo unspecified) | inactive: -0.554%
22 | O=C(O)CNc1ccc([As](=O)(O)O)cc1 | inactive: -13.9%
23 | CC(C)(C)C(=O)NC(Sc1ccncn1)C(Cl)(Cl)Cl (stereo unspecified) | inactive: -1.11%
24 | O=[N+]([O-])c1ncn(CCn2ncnc2[N+](=O)[O-])n1 | inactive: 1.85%
25 | O=[N+]([O-])c1cccc2n[nH]nc12 | inactive: 1.88%
26 | CC(=O)N1C2C3N(C(C)=O)C1C1N(C(C)=O)C(C(N1C(C)=O)N3C(C)=O)N2C(C)=O | inactive: -9.42%

Row | SMILES | activity change, negative = inhibition
27 | Cc1ccc(NP(=O)(Oc2ccccc2)Oc2ccccc2)nc1 | inactive: 2.72%
28 | CCc1nc2c(n1)c1c(non1O)c1c2no[n+]1[O-] | inactive: -1.55%
29 | COc1ccc(C2=NCC(CBr)S2)cc1 (stereo unspecified) | inactive: 1.99%
30 | CC(C)=N/N=C(\N)N[N+](=O)[O-] | inactive: -6.25%
31 | CN(C)C(=O)OCCc1n(C)cc[n+]1C | inactive: -9.08%
32 | CC1CCN(C(=O)Oc2c(Cl)cc(Cl)c3cccnc23)CC1 | inactive: 5.53%
33 | Nc1ccc([As](=O)(O)c2ccc(N)cc2)cc1 | inactive: -6.99%
34 | C[N+]1=C2C=CC=CC=C2SC12C([N+](=O)[O-])=CC([N+](=O)[O-])=C[C-]2[N+](=O)[O-] (stereo unspecified) | inactive: 2.63%
35 | CCN(/C(=N/P(=O)(N1CCOCC1)N1CCOCC1)N1CCOCC1)c1ccc(OC)cc1 | inactive: 8.06%
36 | COc1ccccc1OP(=O)(Nc1ccc(C)cn1)Oc1ccccc1OC | inactive: 6.91%
37 | Cc1ccc(OP(=O)(Nc2nccs2)Oc2ccc(C)cc2)cc1 | inactive: 2.88%
38 | CN1CCCC(OC(=O)C(c2ccccc2)c2ccccc2)C1 (stereo unspecified) | inactive: -13.4%
39 | Clc1ccc(Cl)c(NC2=NCC(CBr)S2)c1 (stereo unspecified) | inactive: 3.14%
40 | NC(=O)c1cc([N+](=O)[O-])cc([N+](=O)[O-])c1N | inactive: 2.24%
41 | Nc1cc(N)c2nonc2c1[N+](=O)[O-] | inactive: 5.28%
42 | CC(C)CC(=O)NC(Sc1ccc(Cl)cc1)C(Cl)(Cl)Cl (stereo unspecified) | inactive: 0.413%
43 | Oc1ccccc1CNc1ccccn1 | inactive: 10.3%
44 | Cc1c2non([O-])c-2c(C)[n+](=O)[n+]1[O-] | inactive: -13.2%
45 | CCOP(=O)(Nc1ccccc1)OCC | inactive: -12.5% and inactive: 6.02%
46 | Cc1ccc(NP(=O)(Oc2ccccc2F)Oc2ccccc2F)nc1 | inactive: 5.76%
47 | CC(=O)Nc1ccc([As](=O)(O)O)cc1 | inactive: 4.45%
48 | O=C(O)c1ccccc1[As](=O)(O)O | inactive: -12%
49 | O=P(Nc1nc2ccc(Cl)cc2s1)(c1ccccc1)c1ccccc1 | inactive: -2.59%
50 | CCN(N=Nc1nonc1N)c1nonc1N | inactive: -10.7%
51 | Nc1cccc2ccc([As](=O)(O)O)cc12 | inactive: -7.8%
